# Reference: patent publication US8269014B2, “Thiophene analogues for the treatment or prevention of flavivirus infections” (Vertex Pharmaceuticals (Canada) Incorporated, priority 2006, dated 2012)
# Some compounds may have been tested in ways that are not shown here.
# System: HCV replicon cells (Huh-7 ET cells)
# Conditions: Ratio of CC50/IC50 in HCV replicon cells (Huh-7 ET cells); average TI when tested more than once
row,Structure (SMILES),TI
1,CC1CCC(C(=O)N(c2cc(-c3ccccc3)sc2C(=O)O)C2CCN(C)CC2)CC1.Cl (centres unmarked),++++ (++++: 2000-4000)
2,CN1CCC(N(c2cc(C#CC(C)(C)C)sc2C(=O)O)C(=O)[C@H]2CC[C@H](C)CC2)CC1.Cl (relative stereo),++++++ (++++++: >6000)
